PubChem BioAssay AID1259414 – Drosophila RNAi Screening Center | 2018
Test: 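Host factors increasing or decreasing Wolbachia levels in cultured fly cells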 (primary screen). Cell system: Drosophila JW18 cells infected with Wolbachia. Knock-down reagent: long dsRNA against Drosophila genes, 0.25 µg dsRNA per well of a 384-well plate. Duration: 5 days. Treatment: cells persistently infected with Wolbachia before knock-down; no added drug. Measured: 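Automated imaging of bacterial rRNA staining divided by host cell count, reported as plate-normalised robust z-score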. Reading the numbers: Wolbachia per cell robust z: higher = more Wolbachia per host cell than the plate typical. Rule for the call: 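Active if absolute robust z reaches 1.5 in two or more of three replicates, leaving out multi- or no-target dsRNAs, genes unexpressed in JW18 and A1 wells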.
In all, the deposit lists about 24,000 reagents; this is an unselected part of those that have a named target and a result. Of all reagents, about 1,210 (5%) were called active. 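Inactive calls also include excluded dsRNAs with several or no targets, genes unexpressed in JW18, and well A1, regardless of score.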 A number with no mark means an inactive call. The numbers tell different reagents against one gene apart. Names joined by + are all predicted targets of the reagent. No sequences are given here.

target	reagent	Wolbachia per cell robust z, rep 1	Wolbachia per cell robust z, rep 2	Wolbachia per cell robust z, rep 3
CG10970	1	0.867	0.459	0.314
CG33341	1	-0.734	-1.06	0.314
CG33341	2	2.28	0.358	-0.463
CG33341	3	-0.46	-1.11	-0.0668
Alp6 (Alkaline phosphatase 6)	1	-1.49	-2.7	0.416
ind (intermediate neuroblasts defective)	1	0.02	0.172	0.818
CG31751	1	-0.855	0.54	-3.49
CG31751	2	0.953	-1.09	1.04
CG15615	1	-0.752	-2.02	0.0411
CG15615	2	0.436	1.28	0.386
CG16812	1	-0.117	-0.804	-1.43
CG16812	2	-0.824	-0.798	0.103
Men (Malic enzyme)	1	-1.26	-2.28	-3.11
Men (Malic enzyme)	2	0.353	-0.538	0.962
Men (Malic enzyme)	3	-2.27	-0.227	-0.0295
Men (Malic enzyme)	4	-0.0992	0.182	1.35
CG14829	1	-0.288	0.601	0.416
CG42674	1	-0.949	-1.9	-1.01
CG42674	2	0.0483	0.00774	0.437
CG42674	3	0.195	-8.34	0.473
CG42674	4	0.401	1.63	-0.0969
CG42674	5	-6.17 (active)	1.17	-2.48
numb	1	0.109	0.556	-0.607
numb	2	0.25	0.547	-0.332
CG17637	1	-4.03	-0.168	-0.494
CG6550	1	0.989	-0.405	0.388
CG13670	1	0.746	0.0811	-0.301
CG13670	2	-0.289	-0.459	-1.33
CG5639	1	-0.37	0.961	-3.8
Ir76b (Ionotropic receptor 76b)	1	-0.967	0.0898	0.425
CG31013	1	0.35	-0.0557	0.895
Piezo	1	-3.59 (active)	-7.26	0.834
Piezo	2	1.01	-0.0178	1.34
CG13713	1	-0.0519	0.285	-0.397
SsRbeta (Signal sequence receptor beta)	1	-0.248	0.13	-1.13
tnc (tenectin)	1	-0.0347	-1.65	0.955
tnc (tenectin)	2	0.1	-0.297	0.969
CG14015	1	0.674	1.63	-0.107
CG14015	2	0.932	0.535	-0.88
Tbc1d8-9 (TBC1 domain family member 8/9)	1	0.494	0.741	-0.462
CG13511	1	0.694	-5.26	0.0339
CG13511	2	1.19	1.53	0.958
CG15890	1	-2.11	-1.87	0.189
CG16959	1	-1.57 (active)	-5.48	1.14
Sem1 (Suppressor of exocyst mutations 1)	1	-0.685	-0.0389	0.112
Sem1 (Suppressor of exocyst mutations 1)	2	-0.0786	1.16	-0.0321
Fhos (Formin homology 2 domain containing)	1	0.586	1.39	0.866
Fhos (Formin homology 2 domain containing)	2	0.224	-0.168	-0.0902
Fhos (Formin homology 2 domain containing)	3	-7.81 (active)	-1.57	-1.77
Fhos (Formin homology 2 domain containing)	4	-0.551	-0.306	0.136
Fhos (Formin homology 2 domain containing)	5	0.461	-0.799	-0.32
sala + CG43355	1	0.172	-0.432	-6.6
sala + CG43355	2	0.333	0.707	0.404
Vps11 (Vacuolar protein sorting 11)	1	0.51	0.171	1.09
Vps11 (Vacuolar protein sorting 11)	2	-0.801	-0.734	0.805
CG17780 + CG17781	1	-0.302	0.0295	-1.8
CG17780 + CG17781	2	1.67	0.935	0.216
Pen (Pendulin)	1	1.62	1.2	0.881
Pen (Pendulin)	2	-0.832	0.522	0.816
Rm62	1	0.946	0.677	-0.0858
Rm62	2	0.43	-0.279	-1
CG12560	1	0.392	0.0918	-0.687
CG33941	1	-0.00638	0.0157	-0.851
CG33941	2	-0.589	-4.81	-0.388
CG33941	3	-2.13	-0.528	-1.03
dsf (dissatisfaction)	1	-5.13	-1.52	-0.0671
dsf (dissatisfaction)	2	0.0383	0.797	2.08
CG13293	1	-0.0932	0.371	0.317
